At least one result comes from cells or an extract, where the contact may be indirect.
Molecular target: PARP-1 (Homo sapiens) (UniProt P09874)
Assay: EMSA
Conditions: protein in an extract; protein details: endogenous, HepG2 nuclear lysate; label: 5'-biotin

By UniProt entry, the sequences of proteins in these tests, tags left out. Residues count along the entry.
UniProt P09874, 2-1014: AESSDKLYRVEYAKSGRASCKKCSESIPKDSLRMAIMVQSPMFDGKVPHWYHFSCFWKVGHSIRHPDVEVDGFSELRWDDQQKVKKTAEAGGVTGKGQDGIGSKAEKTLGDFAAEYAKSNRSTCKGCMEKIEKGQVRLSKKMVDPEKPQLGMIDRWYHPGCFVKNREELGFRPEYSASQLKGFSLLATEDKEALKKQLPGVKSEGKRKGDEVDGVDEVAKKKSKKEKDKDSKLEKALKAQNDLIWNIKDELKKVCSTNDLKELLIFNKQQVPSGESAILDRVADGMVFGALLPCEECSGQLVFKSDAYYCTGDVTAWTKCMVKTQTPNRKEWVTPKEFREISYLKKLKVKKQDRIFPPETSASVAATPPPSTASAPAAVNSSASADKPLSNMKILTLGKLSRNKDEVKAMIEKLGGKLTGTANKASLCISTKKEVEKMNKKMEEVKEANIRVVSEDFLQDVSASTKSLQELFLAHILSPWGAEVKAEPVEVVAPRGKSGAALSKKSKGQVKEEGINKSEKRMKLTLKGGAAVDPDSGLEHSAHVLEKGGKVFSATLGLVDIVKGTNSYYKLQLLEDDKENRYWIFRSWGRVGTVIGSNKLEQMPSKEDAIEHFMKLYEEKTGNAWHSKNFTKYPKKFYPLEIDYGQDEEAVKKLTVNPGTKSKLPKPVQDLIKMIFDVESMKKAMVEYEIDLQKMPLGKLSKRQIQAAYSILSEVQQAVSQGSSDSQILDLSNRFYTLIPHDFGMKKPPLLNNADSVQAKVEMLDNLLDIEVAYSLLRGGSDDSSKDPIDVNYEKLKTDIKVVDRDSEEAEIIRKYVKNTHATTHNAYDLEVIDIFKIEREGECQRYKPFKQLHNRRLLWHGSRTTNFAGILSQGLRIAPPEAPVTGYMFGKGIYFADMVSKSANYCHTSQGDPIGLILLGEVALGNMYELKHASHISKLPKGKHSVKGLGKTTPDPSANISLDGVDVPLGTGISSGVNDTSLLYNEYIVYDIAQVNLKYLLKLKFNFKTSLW

## TTGAGGCCTACTTCAAAGACTGTGTG (double strand) [HBV core promoter PARP-1 probe]
  binding result: binds

From patent publication US20140315973
